PubChem BioAssay AID1259414 | Drosophila RNAi Screening Center – 2018
The screen tested about 24,000 reagents; this is an unselected part of those that have a named target and a result. Over the whole deposit, about 1,210 (5%) were called active. 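Inactive calls also include excluded dsRNAs with several or no targets, genes unexpressed in JW18, and well A1, regardless of score.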 Unmarked entries are inactive. Reagents against one gene are numbered here. A plus sign joins genes that one reagent is predicted to hit. Reagent sequences are not shown.

Screen: 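Fly genes that alter Wolbachia amount inside host cells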 (primary screen)
Cell system: Drosophila JW18 cells infected with Wolbachia
Knock-down reagent: long dsRNA against Drosophila genes, 0.25 µg dsRNA per well of a 384-well plate
Duration: 5 days
Treatment: cells persistently infected with Wolbachia before knock-down; no added drug
Measurement: 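Imaged fluorescence in situ signal for Wolbachia 23S rRNA per DAPI-counted host cell, given as a robust z-score within each plate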
Direction: Wolbachia per cell robust z: higher = more Wolbachia per host cell than the plate typical
Rule for the call: 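Hit when robust z is 1.5 or more, or -1.5 or less, in at least two of three replicates; excludes dsRNAs with several or no targets, genes not expressed in JW18 and well A1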

| target gene | dsRNA no. | Wolbachia per cell robust z, rep 1 | Wolbachia per cell robust z, rep 2 | Wolbachia per cell robust z, rep 3 |
| --- | --- | --- | --- | --- |
| Txl | 1 | 1.12 | 1.27 | 1.31 |
| Sox102F | 1 | -0.939 | 0.0441 | 0.456 |
| Sox102F | 2 | -0.194 | 0.192 | 1.4 |
| SA1 | 1 | 0.639 | 1.27 | 0.8 |
| SA1 | 2 | 2.83 | -0.228 | 0.849 |
| CG14204 | 1 | 0.575 | 0.828 | 1.02 |
| CG14204 | 2 | -1.03 | -1.53 | 0.471 |
| Tsp42A | 1 | -2.37 | -0.315 | 0.078 |
| CG12964 | 1 | 1.14 | 0.821 | -0.315 |
| CG12964 | 2 | -0.914 | -0.965 | -5.13 |
| CG1637 | 1 | -0.542 | -0.0633 | -1.14 |
| CG1637 | 2 | 0.123 | -0.426 | -1.57 |
| CG1637 | 3 | 0.174 | -3.95 | -0.0684 |
| CG1637 | 4 | 0.217 | 0.431 | -0.426 |
| Arp8 | 1 | -4.67 | 0.532 | 0.0953 |
| Arp8 | 2 | 0.644 | 1.29 | 1.17 |
| RabGGTb | 1 | 0.0609 | -0.845 | -0.362 |
| RabGGTb | 2 | 0.845 | 1.12 | 1.64 |
| CG13110 | 1 | 0.193 | -4.51 | 0.683 |
| RabX5 | 1 | -1.53 | -0.136 | -0.567 |
| RabX5 | 2 | 1.73 | 0.373 | 0.405 |
| glec | 1 | 0.852 | 0.185 | 0.412 |
| glec | 2 | -1.17 (active) | -2.42 | -1.9 |
| CG30398 | 1 | -2.27 | -1.37 | -0.495 |
| CG7099 | 1 | 0.117 | 0.927 | -0.433 |
| CG7099 | 2 | -4.79 | 0.198 | 0.381 |
| lncRNA:CR42715 | 1 | -0.434 | -0.57 | -0.166 |
| CG6654 | 1 | -0.185 | -0.42 | -0.159 |
| snRNA:U1:82Eb | 1 | -0.482 | 0.0617 | -0.525 |
| CG12204 | 1 | 0.0457 | -0.000717 | -0.226 |
| CG12204 | 2 | -1.11 | -1.36 | -0.772 |
| Lapsyn | 1 | 0.35 | -3.59 | -0.0598 |
| CG14440 | 1 | 0.852 | 0.217 | -2.62 |
| CG14440 | 2 | 0.485 | -0.0493 | -3.69 |
| CG14440 | 3 | 0.0718 | -0.566 | 0.58 |
| Prp40 | 1 | -0.145 | -1.2 | 0.672 |
| CG10927 | 1 | -0.027 | -0.801 | -1.09 |
| CG10927 | 2 | -0.1 | 0.266 | 0.434 |
| Cyp6a14 | 1 | -1.63 (active) | -1.57 | -0.315 |
| Cyp6a14 | 2 | 0.706 | 1.56 | 0.956 |
| CG6927 | 1 | -0.391 | 0.377 | 2.74 |
| CG30039 | 1 | 0.875 | 0.566 | -0.101 |
| CG30039 | 2 | -0.488 | 0.735 | -0.169 |
| CG7379 | 1 | 0.402 | 0.282 | 0.233 |
| CG7379 | 2 | 0.192 | -0.158 | 0.341 |
| lncRNA:mimi | 1 | 0.236 | 0.671 | 0.47 |
| CG11529 | 1 | 0.675 | -0.383 | -4.57 |
| CG17778 | 1 | 1.46 | 1.53 | 1.87 |
| Lcp3 | 1 | -0.58 | -1.19 | 0.614 |
| Lcp3 | 2 | 0.54 | 0.471 | 1.02 |
| CG14153 | 1 | 0.404 | 0.185 | 0.341 |
| CG14153 | 2 | 0.205 | -0.307 | -0.0941 |
| Pis | 1 | -2.96 | -0.914 | 0.702 |
| Pis | 2 | 0.283 | 0.873 | 0.00205 |
| Ir51a | 1 | -3.11 | 0.241 | 0.338 |
| MED28 | 1 | 0.0978 | -2.41 | -0.101 |
| Tsen34 | 1 | 0.191 | -1.97 | -0.393 |
| CG33325 | 1 | -0.66 | -1.59 | -9.31 |
| heph | 1 | 0.288 | 0.533 | 0.378 |
| heph | 2 | -0.846 | -0.574 | 0.522 |
| heph | 3 | -0.417 | 0.295 | 0.287 |
| heph | 4 | -3.18 (active) | -0.0666 | -0.843 |
| CG42813 | 1 | 0.0282 | -0.106 | -0.483 |
| CG12853 | 1 | -3.18 | -4.63 | 0.61 |
| CG12853 | 2 | -1.07 | 0.389 | 0.0254 |
| Lip3 | 1 | -0.0113 | 0.375 | 1.11 |
| Lip3 | 2 | -0.456 | 0.368 | -0.681 |
| SC35 | 1 | 0.16 | -0.514 | -0.275 |
| SC35 | 2 | -0.782 | 0.437 | 0.546 |
| SC35 | 3 | -0.0238 | -0.797 | 0.326 |
| SC35 | 4 | 0.401 | -1.26 | 2.21 |
| WRNexo | 1 | -0.714 | 0.142 | 0.871 |
| Sp212 | 1 | -0.668 | -1.13 | -0.521 |
| Sp212 | 2 | -0.366 | -0.292 | 0.926 |
| Vajk4 | 1 | -1.97 | -0.864 | 0.0148 |
| Vajk4 | 2 | -0.202 | 0.273 | -1.59 |
| Vajk4 | 3 | 0.401 | -0.544 | 0.53 |
| CG12822 + CG18853 + Atg10 | 1 | -0.0694 | -1.43 | -1.23 |
| CG6693 | 1 | 0.284 | -0.137 | -0.0563 |
| CG6693 | 2 | 1.38 | 1.02 | 0.0839 |
| Rab19 | 1 | 0.133 | 0.232 | 0.205 |
| Rab19 | 2 | 0.654 | 0.0231 | 0.0663 |
| snoRNA:Me28S-G2743 (retired record) + CG31910 | 1 | -0.651 | -0.782 | -0.181 |
| CG10803 | 1 | -2.41 | -0.436 | 0.238 |
| CG10803 | 2 | -1.35 | 0.571 | 0.74 |
| CG2924 | 1 | -1.08 | 0.51 | -2.12 |
| CG2924 | 2 | 0.02 | 0.18 | 0.689 |
